Results of unrelated studies side by side (data: NIAID ChemDB).

Shared fields: whole-cell or culture tests; organism: Candida albicans

Lines come from different laboratories, so protocols vary. A number after MIC or MFC names an inhibition level or a share of isolates. Blank or dashed fields: not listed here.

SMILES,strain or isolate,method,read-out,value
Cc1ccc(-c2c3c(N)c4c(nc3nc3c2c(C)nn3-c2ccccc2)CCC4)cc1,CCC 128,broth dilution / absorbance,MIC50,31.2 µg/mL
C[C@H]1[C@H](O)[C@@H](C)/C=C/C=C/C=C/C=C/C=C/C=C/C=C/[C@H](O[C@@H]2O[C@H](C)[C@@H](O)[C@H](N)[C@@H]2O)C[C@@H]2O[C@](O)(C[C@@H](O)C[C@@H](O)CC[C@H](O)[C@@H](O)C[C@@H](O)CC(=O)O[C@H]1C)C[C@H](O)[C@H]2C(=O)O,SC14061 (azole-resistant),,MIC,0.13 µg/mL
C[C@H]1[C@H](O)[C@@H](C)/C=C/C=C/C=C/C=C/C=C/C=C/C=C/[C@H](O[C@@H]2O[C@H](C)[C@@H](O)[C@H](N)[C@@H]2O)C[C@@H]2O[C@](O)(C[C@@H](O)C[C@@H](O)CC[C@H](O)[C@@H](O)C[C@@H](O)CC(=O)O[C@H]1C)C[C@H](O)[C@H]2C(=O)O,A28200,,MIC,0.25 µg/mL
CC(C)C(=O)CCC[C@@H]1CO[C@@](Cn2cccc2)(c2ccc(F)cc2F)C1,IFO. 1385,,MIC,>100 µg/mL
CC(C)(O)c1cn(-c2ccc(Cl)cc2)nn1,URM 4126,broth dilution,MIC,128 µg/mL
CC(C)N=C(N)c1ccc2nc(-c3ccc4c(c3)Cc3cc(-c5nc6ccc(C(N)=NC(C)C)cc6[nH]5)ccc3-4)[nH]c2c1,Isolate 17 (strain 12-99),,MFC,3.12 µg/mL
CCCCCCCOc1ccc(N2CCN(c3ccc(C(=O)N[C@H]4CCCNC(=O)[C@@H]5C[C@H](N)CN5C(=O)[C@H]([C@@H](C)O)NC(=O)[C@H](CCc5ccc(CO)cc5)NC(=O)[C@@H]5CCCN5C(=O)[C@H]([C@@H](C)O)NC4=O)cc3)CC2)cc1,ATCC 62376,,MIC,1.56 µg/mL
OC(CN1CCN(c2ccc(OCc3ccncc3)cc2)CC1)(Cn1cncn1)c1ccc(F)cc1F,304121,,MIC80,2 µg/mL
O[C@](Cn1cncn1)(Cn1cnc(/C=C/c2ccc(OCC(F)(F)C(F)F)cc2)n1)c1ccc(F)cc1F,Isolate I1-28,,MIC,2 µg/mL
CC(C)C1C[C@H]2C[C@]3(C=O)[C@@H]4CC[C@@H](C)[C@H]4C[C@@]2(CO[C@H]2CN(C4CC4)C[C@@H](C)O2)[C@]13C(=O)O,16 isolates/fluconazole resistant,,MIC50,0.03 µg/mL
Cc1ccc(-c2c3c(N)c4c(nc3nc3c2c(C)nn3-c2ccccc2)CCCCC4)cc1,CCC 130,broth dilution / absorbance,MIC100,125 µg/mL
CCCCCCCCOc1ccc(N2CCN(c3ccc(C(=O)N[C@H]4CCCNC(=O)[C@@H]5C[C@H](N=C(N)N)CN5C(=O)[C@H](CCN)NC(=O)[C@H](CCc5ccc(O)cc5)NC(=O)[C@@H]5CCCN5C(=O)[C@H]([C@@H](C)O)NC4=O)cc3)CC2)cc1,ATCC 38247,,MIC,0.2 µg/mL
COc1ccc(CN2C[C@H](OC[C@@]34C[C@@H]5[C@H](C)CC[C@H]5[C@@]5(C=O)C[C@@H]3CC(C(C)C)[C@@]45C(=O)O)O[C@H](C)C2)cc1,16 isolates,,MIC90,≤0.001 µg/mL
CC(C)C(=N)CCC[C@H]1CO[C@@](Cn2ccnc2)(c2ccc(F)cc2F)C1,B02630,,MIC,>100 µg/mL
COc1ccc(-c2c3c(N)c4c(nc3nc3c2c(C)nn3-c2ccccc2)CCCC4)cc1,ATCC 10231,broth dilution / absorbance,MIC50,125 µg/mL
CC(C)C(=N)CCC=C1CO[C@@](Cn2cncn2)(c2ccc(F)cc2F)C1,B02630,,MIC,>100 µg/mL
CCCCCOc1ccc(-c2ccc(-c3ccc(C(=O)N[C@H]4CCCNC(=O)[C@@H]5C[C@H](NC(=O)OC)CN5C(=O)[C@H]([C@@H](C)O)NC(=O)[C@H](CCc5ccc(O)cc5)NC(=O)[C@@H]5C[C@@H](O)CN5C(=O)[C@H]([C@@H](C)O)NC4=O)cc3)cc2)cc1,ATCC 62376,,MIC,0.39 µg/mL
CC(C)C(=O)CCC[C@H]1CO[C@@](Cn2cccc2)(c2ccc(F)cc2F)C1,A.10231,,MIC,>100 µg/mL
C=C(C)CN1C[C@H](OC[C@@]23C[C@@H]4[C@H](C)CC[C@H]4[C@@]4(C=O)C[C@@H]2CC(C(C)C)[C@@]34C(=O)O)O[C@H](C)C1,16 isolates/fluconazole resistant,,MIC50,0.008 µg/mL
CCCCCOc1ccc(-c2ccc(-c3ccc(C(=O)N[C@H]4CCCNC(=O)[C@@H]5C[C@H](N)CN5C(=O)[C@H](CO)NC(=O)C(CCc5ccc(O)cc5)NC(=O)[C@@H]5C[C@@H](O)CN5C(=O)[C@H]([C@@H](C)O)NC4=O)cc3)cc2)cc1,ATCC 62376,,MIC,0.1 µg/mL
Cc1c(O)cccc1C(=O)N[C@@H](CSc1ccccc1)[C@H](O)CN1C[C@H]2CCCC[C@H]2C[C@H]1C(=O)NC(C)(C)C,I123A,,MIC,64 µg/mL
CC(/C=C/C=C(\C)C(O)C(C)C(=O)O[C@H]1C[C@@H](C)C=C2C=C[C@@](C)(O)[C@](C)(C(=O)CCO)[C@H]21)=C\C=C\C(=O)O,ATCC 62376,,MIC,50 µg/mL
C[C@@H](O)[C@@H]1NC(=O)[C@H](CCc2ccc(O)cc2)NC(=O)[C@@H]2C[C@@H](O)CN2C(=O)[C@H]([C@@H](C)O)NC(=O)[C@@H](NC(=O)c2ccc(N3CCNCC3)cc2)CCCNC(=O)[C@@H]2C[C@H](N)CN2C1=O,ATCC 62376,,MIC,>100 µg/mL
CC(C)C(=O)CCC[C@H]1CO[C@@](Cn2ccnc2)(c2ccc(F)cc2F)C1,A.10231,,MIC,25 µg/mL
Cc1ccc(-c2c3c(N)c4c(nc3nc3c2c(C)nn3-c2ccccc2)CCCC4)cc1,ATCC 10231,broth dilution / absorbance,MIC50,31.2 µg/mL
CCCCCOc1ccc(-c2ccc(-c3ccc(C(=O)N[C@H]4CCCNC(=O)[C@@H]5C[C@H](NC(=O)NC)CN5C(=O)[C@H]([C@@H](C)O)NC(=O)[C@H](CCc5ccc(O)cc5)NC(=O)[C@@H]5C[C@@H](O)CN5C(=O)[C@H]([C@@H](C)O)NC4=O)cc3)cc2)cc1,ATCC 38247,,MIC,0.78 µg/mL
C=CCc1ccc(OC)c(OC)c1,3043,turbidity,MIC90,350 µg/mL

The first 4 rows once more:

{"SMILES": "Cc1ccc(-c2c3c(N)c4c(nc3nc3c2c(C)nn3-c2ccccc2)CCC4)cc1", "strain or isolate": "CCC 128", "method": "broth dilution / absorbance", "read-out": "MIC50", "value": "31.2 µg/mL"}
{"SMILES": "C[C@H]1[C@H](O)[C@@H](C)/C=C/C=C/C=C/C=C/C=C/C=C/C=C/[C@H](O[C@@H]2O[C@H](C)[C@@H](O)[C@H](N)[C@@H]2O)C[C@@H]2O[C@](O)(C[C@@H](O)C[C@@H](O)CC[C@H](O)[C@@H](O)C[C@@H](O)CC(=O)O[C@H]1C)C[C@H](O)[C@H]2C(=O)O", "strain or isolate": "SC14061 (azole-resistant)", "read-out": "MIC", "value": "0.13 µg/mL"}
{"SMILES": "C[C@H]1[C@H](O)[C@@H](C)/C=C/C=C/C=C/C=C/C=C/C=C/C=C/[C@H](O[C@@H]2O[C@H](C)[C@@H](O)[C@H](N)[C@@H]2O)C[C@@H]2O[C@](O)(C[C@@H](O)C[C@@H](O)CC[C@H](O)[C@@H](O)C[C@@H](O)CC(=O)O[C@H]1C)C[C@H](O)[C@H]2C(=O)O", "strain or isolate": "A28200", "read-out": "MIC", "value": "0.25 µg/mL"}
{"SMILES": "CC(C)C(=O)CCC[C@@H]1CO[C@@](Cn2cccc2)(c2ccc(F)cc2F)C1", "strain or isolate": "IFO. 1385", "read-out": "MIC", "value": ">100 µg/mL"}